Anti-infective test results gathered from many reports (values: NIAID ChemDB through PubChem).

All rows: growth or infection tests; agent: Mycobacterium avium; endpoint: MIC

Conditions beyond the fields shown may differ between rows. An empty or dashed field is not shown.

smiles	strain or isolate	conditions	value
COc1ccc2c(=O)n(-c3ccc(Cl)c(Cl)c3)c(=O)oc2c1	CNCTC MY330/88		32 µM
CCCCCCCCOc1ccc(NC(=O)OCCN(C)C)cc1	MY330/88		8 µM
COc1ccc2c(=O)n(-c3ccc(F)cc3)c(=O)oc2c1	CNCTC MY330/88		62.5 µM
CCCCCCC(C/C(C)=C/CC[C@H](C)CCO)C(=O)O			62.5 µM
CC(C)Sc1ncnc2ccccc12	D 5/93		63 µM
Clc1ccc(C(Cn2ccnc2)OCc2cccc3ccccc23)cc1	CIP103317		1 µg/mL
O=C(Nc1ccc(C(F)(F)F)cc1)c1ccc(Cl)cc1OS(=O)(=O)c1ccccc1	330/88	21 d	250 µM
Clc1ccc(C(Cn2ccnc2)OCc2ccc(-c3ccccc3)cc2)cc1	CIP103317		0.5 µg/mL
CCCCCCCCCC(CC(=O)O)c1ccccc1			5 µM
Nc1ccc(Cl)cc1C(=O)Nc1ccc(F)cc1	MY330/88		>62 µM
C(=C\c1ccccc1)/CNc1cccc(Cn2ccnc2)c1	103317		2 µg/mL
Nc1ccc(Cl)cc1C(=O)Nc1ccc(Br)cc1	MY330/88		62 µM
O=C(Nc1ccc(Cl)c(Cl)c1)c1ccc(Cl)cc1OS(=O)(=O)c1ccccc1	330/88	21 d	62.5 µM
CCCC(CC(=O)O)c1ccccc1			>100 µM
CCOC(=O)C(=O)N=Nc1c(S)n(CC)c2ccccc12	CNCTC MY80/72		>1000 µM
Nc1ccccc1C(=O)Nc1cccc(F)c1	MY330/88		250 µM
CCn1c(S)c(N=NC(N)=[NH2+])c2ccccc21	CNCTC MY66/72		125 µM
CC(C)(C)c1ccc(COC(Cn2ccnc2)c2ccc(Cl)cc2Cl)cc1	CIP103317		2 µg/mL
O=c1oc2cc(Cl)ccc2c(=O)n1-c1ccc(C(F)(F)F)cc1	CNCTC MY330/88		8 µM
CCCCCCCCCCCCCC(C(=O)O)c1ccccc1			2.5 µM
CC(C)(C)c1ccc(COC(Cn2ccnc2)c2ccccc2)cc1	CIP103317		4 µg/mL
CCCCCCCCOc1cccc(NC(=O)OCCN2CCCCC2)c1	MY330/88		16 µM
Clc1ccc(C(Cn2ccnc2)OCc2ccc(-c3ccccc3)cc2)c(Cl)c1	CIP103317		8 µg/mL
O=C1C(=S)N(Cc2ccccc2)c2ccccc21	CNCTC D5/93		500 µM
CCCCCOc1ccc(NC(=O)OCCN2CCCCC2)cc1	MY330/88		62.5 µM
O=c1oc2ccccc2c(=O)n1-c1ccc(F)cc1	CNCTC MY330/88		62 µM
CCSc1ncnc2ccccc12	CNCTC MY80/72		500 µM
CC(C)c1ccc(NC(=O)c2cc(Cl)ccc2N)cc1	MY330/88		31 µM
CCCC(C/C(C)=C/CC[C@H](C)CCO)C(=O)O			62.5 µM
CCN(CC)C(=O)COc1cc2c(O)c3c(O)c(C)c4c(c13)C(=O)[C@@](C)(O/C=C/[C@H](OC)[C@@H](C)[C@@H](OC(C)=O)[C@H](C)[C@H](O)[C@H](C)[C@@H](O)[C@@H](C)/C=C/C=C(/C)C(=O)N2)O4			10 µg/mL
C(/C=C/c1ccccc1)=Nc1cccc(CN2CCOCC2)c1	103317		32 µg/mL
CC(C)CSc1ncnc2ccccc12	CNCTC MY80/72		250 µM
C(/C=C/c1ccccc1)=Nc1ccccc1Cn1ccnc1	103317		16 µg/mL
C[C@H]1COc2c(N3CCN(C)CC3)c(F)cc3c(=O)c(C(=O)O)cn1c23	14-2		0.5 µg/mL
O=C(Nc1ccc(Cl)cc1)c1cc(Cl)ccc1OS(=O)(=O)c1ccccc1	330/88	21 d	32 µM
C(=C\c1ccccc1)/COC(Cn1ccnc1)c1ccccc1	CIP103317		0.5 µg/mL
C(=C\c1ccccc1)/CNc1ccccc1CN1CCOCC1	103317		>64 µg/mL
Cc1ccc(C(Cn2ccnc2)OC/C=C/c2ccccc2)cc1	CIP103317		0.5 µg/mL
C(/C=C/c1ccccc1)=Nc1ccc(Cn2ccnc2)cc1	103317		2 µg/mL
Clc1ccc2c(c1)nc1cc(Nc3ccccc3)c(=NC3CCCCC3)cc-1n2-c1ccccc1	11279		3.3 µg/mL
C(/C=C/c1ccccc1)=Nc1ccc(CN2CCOCC2)cc1	103317		8 µg/mL
CC(C)=CCCC(C)C/C=C/C(C)=C/C(=O)O			15.6 µM
O=C1C(=S)N(c2ccccc2)c2ccccc21	CNCTC D5/93		63 µM
CCCCCOc1cccc(NC(=O)OCCN(C)C)c1	MY330/88		32 µM
CCOC(=O)c1ccc(-n2c(=O)oc3cc(Cl)ccc3c2=O)cc1	CNCTC MY330/88		32 µM
C(=C\c1ccccc1)/CNc1ccc(CN2CCOCC2)cc1	103317		8 µg/mL
O=C(Nc1cccc(F)c1)c1cc(Cl)ccc1OS(=O)(=O)c1ccccc1	330/88	14 d	500 µM
Clc1ccc(C(Cn2ccnc2)OC/C=C/c2ccccc2)cc1	CIP103317		1 µg/mL
CN1CCN(Cc2ccccc2N=C/C=C/c2ccccc2)CC1	103317		32 µg/mL
O=C(O)CCc1ccccc1			>100 µM
O=c1oc2cc(Cl)ccc2c(=O)n1-c1ccc(F)cc1	CNCTC MY330/88		32 µM
C(=C\c1ccccc1)/CNc1ccc(Cn2ccnc2)cc1	103317		1 µg/mL